Measurements reported in PubChem BioAssay AID624099 (ICCB-Longwood, 2012)
This is one part, drawn at random, of about 21,000 reagents tested. Over the whole deposit, 497 (2.4%) got an active call. 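Higher z means weaker E2 silencing; only reporter increases were scored, and knock-downs that hurt cell survival may mask genuine repressor factors.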 No sequences are given here.

Aim: 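Knock-downs relieving repression by E2 of an HPV18 LCR luciferase reporter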 (primary screen)
System: human C33A cervical carcinoma cells (HPV-negative) stably expressing BPV1 E2 and an HPV18 LCR luciferase reporter
Reagents: siRNA pool against human genes, 40 nM
Time to read-out: 72 h
Detection: 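Per-well luciferase luminescence, z-scored on each plate against the plate mean and SD with control wells left out, then averaged across three replicate plates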
Scale: mean z-score and z-score: higher = stronger reporter signal, weaker E2 silencing
Active means: 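Mean z ≥ 2 together with z ≥ 2 in two or more of the three replicates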

gene	mean z-score	z-score, replicate A	z-score, replicate B	z-score, replicate C	Outcome
NUTF2P4	-0.36	-0.53	-0.41	-0.16	inactive
FBXO22	-0.38	-0.22	-0.34	-0.57	inactive
B4GALNT4	0.77	0.66	0.75	0.9	inactive
CHML	-1.64	-1.53	-1.51	-1.88	inactive
A2ML1	1.52	1.67	1.45	1.45	inactive
PACS2	0.45	0.78	0.03	0.56	inactive
H3P44	-0.21	-0.05	-0.29	-0.28	inactive
INTS4P1	1.13	0.97	1.25	1.16	inactive
GK5	-0.08	-0.21	-0.25	0.22	inactive
SARS2	0.94	0.65	0.9	1.28	inactive
HJURP	0.74	0.67	0.86	0.7	inactive
RPL4	-1.92	-2.01	-1.92	-1.83	inactive
KCNH3	-0.68	-0.57	-0.6	-0.87	inactive
KCNS3	-0.41	-0.47	-0.27	-0.48	inactive
ZNF33B	-0.03	0.07	-0.04	-0.12	inactive
GOLGA7B	-1.59	-1.32	-1.65	-1.8	inactive
NLRP4	2.87	3.22	3.07	2.32	active
TRIM38	0.43	0.52	0.44	0.32	inactive
TAS2R5	0.1	0.26	-0.1	0.13	inactive
CD33	-0.68	-0.73	-0.59	-0.71	inactive
IGF1	-0.08	-0.07	-0.12	-0.05	inactive
TCF12	-0.57	-0.69	-0.5	-0.53	inactive
FNTA	-0.18	-0.26	-0.38	0.12	inactive

Ordered by “z-score, replicate A” (high to low): 3 of the entries above.
gene	mean z-score	z-score, replicate A	z-score, replicate B	z-score, replicate C	Outcome
A2ML1	1.52	1.67	1.45	1.45	inactive
PACS2	0.45	0.78	0.03	0.56	inactive
H3P44	-0.21	-0.05	-0.29	-0.28	inactive
